Test results as given in paper PMC6028965, “Mechanism of vaccinia viral protein B14–mediated inhibition of IκB kinase β activation” (The Journal of Biological Chemistry, 2018).

Target: untagged B14 protein (vaccinia virus, UniProt P24772 1-149)
Experiment: pull-down

B1: GST-IKKβ-KD-ULD M1 mutant (residues 179–197 substituted with GGGGSGGS) (domain or fragment)
chain: MSWSPSLTTQTCGAWEMKERLGTGGFGNVIRWHNQETGEQIAIKQCRQELSPRNRERWCLEIQIMRRLTHPNVVAARDVPEGMQNLAPNDLPLLAMEYCQGGDLRKYLNQFENCCGLREGAILTLLSDIASALRYLHENRIIHRDLKPENIVLQQGEQRLIHKIIDLGYAKELDQGSLGGGGSGGSKYTVTVDYWSFGTLAFECITGFRPFLPNWQPVQWHSKVRQKSEVDIVVSEDLNGTVKFSSSLPYPNNLNSVLAERLEKWLQLMLMWHPRQRGTDPTYGPNGCFKALDDILNLKLVHILNMVTGTIHTYPVTEDESLQSLKARIQQDTGIPEEDQELLQEAGLALIPDKPATQCISDGKLNEGHTLDM
binding result: binds
